Experiment [1] deals with S sensors L15 + S25: S(aa 328-533)-15aa-LgBiT and S(aa 328-533)-25aa-SmBiT (SARS-CoV-2).
The target is the same in experiment [2]. The experiment is described as follows: spLUC, lyophilized S sensors.

Take CR3022 Fab: the percent of signal competed in experiment [1] was found to be 90%.

Turning to CR3022 IgG (antibody), in experiment [2], the percent signal strength of lyophilized compared to fresh sensors amounted to 50%.

Source of the values: patent publication US20230296621A1.
